Compound potency records, mixed from different reports. Data source: NIAID ChemDB in PubChem.

Common to all: toxicity to cultured cells; cell line: Huh7; read-out: CC50

An empty or dashed field is not shown. Lines come from different laboratories, so protocols vary. Two numbers with a dash give a range or band. CCn: concentration that lowers growth or viability of the cells by n%.

SMILES	read by	result
COc1ccc(-c2cnc3nc(N)nc(N4CCN(Cc5ccncc5)CC4)c3n2)cc1OC	ATP	10–20 µM
N#Cc1c(Nc2ccc(Cl)cc2)s[nH]c1=O		>50 µM
COc1nc(N)nc2ccc(-c3ccc(C(=O)NC4CC4)cc3)nc12		10–20 µM
CCCCOc1nc(N)nc2ncc(-c3ccc(F)cc3)nc12		>20 µM
Cc1cc(I)ccc1Nc1s[nH]c(=O)c1C#N		>50 µM
COc1ccc(-c2cnc3nc(N)nc(N4CCN(C(=O)Nc5ccccc5)CC4)c3n2)cc1OC	ATP	<10 µM
Nc1nc(N2CCOCC2)c2nc(-c3ccccc3Cl)cnc2n1		<10 µM
CC(Nc1s[nH]c(=O)c1C#N)c1ccccc1		>50 µM
CCCCc1ccc(C(=O)N2CCN(c3nc(N)nc4ncc(-c5ccc(OC)c(OC)c5)nc34)CC2)cc1	ATP	<10 µM
COC(=O)Nc1ccc(-c2ccc3nc(N)nc(N4CCS(=O)(=O)CC4)c3n2)cc1		>20 µM
Nc1nc(N2CCOCC2)c2nc(-c3ccc(F)cc3Cl)cnc2n1		10–20 µM
CC(C)(N)C(=O)Nc1ccc(-c2ccc3nc(N)nc(O[C@@H]4CCOC4)c3n2)cc1F		>20 µM
N#Cc1c(Nc2cccc(Cl)c2)s[nH]c1=O		>50 µM
COc1ccc(-c2cnc3nc(N)nc(N4CCN(Cc5cccc(C)c5)CC4)c3n2)cc1OC	ATP	10–20 µM
COCCOc1nc(N)nc2ccc(-c3ccc(C(=O)NC4CC4)cc3)nc12		>20 µM
NS(=O)(=O)c1ccc(CNc2nc(NCC(F)(F)F)c3nc(-c4ccc(C(=O)NC5CC5)cc4)cnc3n2)cc1	ATP	>20 µM
Nc1nc(OCC2CC2)c2nc(-c3ccc(F)cc3)cnc2n1		>20 µM
Nc1nc(N2CCOCC2)c2nc(-c3ccc(C(=O)NC4CC4)cc3)ccc2n1		<10 µM
COC(=O)c1ccc(Nc2s[nH]c(=O)c2C#N)cc1		>50 µM
COCCOc1nc(N)nc2ccc(-c3ccc(C(=O)NOC)cc3)nc12		>20 µM
CCCCCC(=O)N1CCN(c2nc(N)nc3ncc(-c4ccc(OC)c(OC)c4)nc23)CC1	ATP	10–20 µM
Nc1nc(N2CCOCC2)c2nc(-c3cccc(Cl)c3)cnc2n1		>20 µM
CC(C)Oc1nc(N)nc2ccc(-c3ccc(NC(=O)C(C)C)cc3)nc12		>20 µM
Cc1ccc(Nc2s[nH]c(=O)c2C#N)cc1		>50 µM
Nc1nc(N2CCOCC2)c2nc(-c3ccc4c(c3)CC(=O)N4)cnc2n1		10–20 µM
COc1ccccc1Nc1s[nH]c(=O)c1C#N		>50 µM
CCOc1nc(N)nc2ccc(-c3ncc(N)s3)nc12		10–20 µM
COc1ccc(-c2cnc3nc(N)nc(N4CCN(C(=O)Cc5cccs5)CC4)c3n2)cc1OC	ATP	<10 µM
COCCNc1nc(N)nc2ccc(-c3ccc(NC(=O)OC)cc3)nc12		>20 µM
Fc1ccc(CNc2nc(NCC(F)(F)F)c3nc(-c4ccc(F)cc4)cnc3n2)cc1	ATP	<10 µM